Values joined by “and” are separate entries in the source; they are usually repeats but may differ in a detail not shown here. Identical values can stand only once. Like-named read-outs stand apart in the source and are kept apart here.
Assays:
CD8+ T cells [1] = test system: CD8+ T cells
CD8+ T cells [2] = type: cell-based, human; details: for specificity to SARS-CoV-2 antigens, count per antigen: acute and convalescent COVID-19 patients; for specificity to SARS-CoV-2 antigens, count per antigen, Summary: sum over the four HLA alleles; for No. of Cells: cells of the TCR clonotype specific for the epitope / HLA class I of the same line
I-Ab = target: T1, I-Ab (Mus musculus, UniProt P14434+P14483); details: I-Ab presented peptides cloned in MCR2 vector; read-out: IC50 (I-Ab binding affinity); cited from earlier work
T1 sequence (P14483 28-265): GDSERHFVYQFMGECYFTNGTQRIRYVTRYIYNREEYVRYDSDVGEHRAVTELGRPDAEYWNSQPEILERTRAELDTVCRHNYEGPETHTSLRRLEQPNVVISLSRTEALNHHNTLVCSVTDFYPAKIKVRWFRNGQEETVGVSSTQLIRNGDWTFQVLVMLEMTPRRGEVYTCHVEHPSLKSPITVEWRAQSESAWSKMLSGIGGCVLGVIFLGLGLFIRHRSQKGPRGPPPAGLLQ
T1 sequence (P14434 24-256): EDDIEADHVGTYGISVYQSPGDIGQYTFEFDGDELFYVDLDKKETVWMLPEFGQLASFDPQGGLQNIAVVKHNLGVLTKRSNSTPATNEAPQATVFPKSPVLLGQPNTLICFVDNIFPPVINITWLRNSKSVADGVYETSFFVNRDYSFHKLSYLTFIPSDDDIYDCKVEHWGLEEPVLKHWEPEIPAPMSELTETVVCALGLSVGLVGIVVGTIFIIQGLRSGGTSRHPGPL

TCR115 = experiment: MCR system screening of TCR115 and HLA-II presentation of M protein epitopes (Example 19); type: cell-based, human; details: T cells expressing the TCR

**Q.** What does the source list for LLYDANYFL (SARS-CoV-2 3A epitope)?
**A.** proportion of epitope-specific T cells in central memory (C2) (CD8+ T cells [1]; convalescent donors): 42%; No. of Clono Types (CD8+ T cells [2]; CDR3alpha motif group): 20; No. of subjects (CD8+ T cells [2]; CDR3alpha motif group): 9; Total Cells (CD8+ T cells [2]; CDR3alpha motif group): 30; No. of subjects (CD8+ T cells [2]; CDR3beta motif group): 5 and 3; Total Cells (CD8+ T cells [2]; CDR3beta motif group): 9 and 7 and 10

**Q.** Which “proportion of epitope-specific T cells in cytotoxic terminal effector (C7)” value (CD8+ T cells [1]; convalescent donors) does the source give for `CC(C)C[C@H](NC(=O)[C@H](CCC(N)=O)NC(=O)[C@H](CC(N)=O)NC(=O)[C@H](CC(C)C)NC(=O)[C@H](CCCNC(=N)N)NC(=O)[C@H](CC(=O)O)NC(=O)[C@H](CC(C)C)NC(=O)[C@H](CC(C)C)NC(=O)[C@@H](N)CC(C)C)C(=O)O` here?
**A.** The value was 61%.

**Q.** With AWENTTIDLTSEKPA as the compound, how does the IC50 (I-Ab) read?
**A.** The IC50 was 10 µM.

**Q.** Which “recognition of the 20mer epitope […] (SEQ ID NO: 306)” value (TCR115) does the source give for “TCR115: published TCR of a CD4 T cell clonotype from BAL of patient C141, screened in the MCR system (TCR alpha CAAMNNTNAGKSTF; TCR beta CASSLFSSGQGNGYTF)” here?
**A.** Its value is “strongly recognized”.

**Q.** For IEYAKLYVLSPILAE, which IC50 (I-Ab) is on record?
**A.** Its IC50 is 0.282 µM.

**Q.** For FTSDYYQLY (SARS-CoV-2 epitope), which “No. of Clono Types” value (CD8+ T cells [2]; CDR3alpha motif group) is on record?
**A.** Its value is 1.

**Q.** And the No. of subjects (CD8+ T cells [2]; CDR3alpha motif group)?
**A.** The No. of subjects was 2.

**Q.** What about the “Total Cells” value (CD8+ T cells [2]; CDR3alpha motif group) of the same compound?
**A.** Its value is 5.

**Q.** What about the “No. of Clono Types” value (CD8+ T cells [2]; CDR3beta motif group) of the same compound?
**A.** Its value is 2.

**Q.** What about the No. of subjects (CD8+ T cells [2]; CDR3beta motif group) of the same compound?
**A.** Its No. of subjects is 2.

**Q.** What about the “Total Cells” value (CD8+ T cells [2]; CDR3beta motif group) of the same compound?
**A.** The value was 10.

**Q.** With YDMFNLLLMKPLGIE as the compound, how does the IC50 (I-Ab) read?
**A.** Its IC50 is 6.75 µM.

**Q.** Which results are given for SARS2_3A: SARS-CoV-2 antigen 3A?
**A.** specificity to SARS-CoV-2 antigens, count per antigen (CD8+ T cells [2]; A*01:01): 6; specificity to SARS-CoV-2 antigens, count per antigen (CD8+ T cells [2]; A*02:01): 73; specificity to SARS-CoV-2 antigens, count per antigen (CD8+ T cells [2]; A*24:02): 6; specificity to SARS-CoV-2 antigens, count per antigen (CD8+ T cells [2]; B*07:02): 1; specificity to SARS-CoV-2 antigens, count per antigen, Summary (CD8+ T cells [2]): 86

**Q.** Which “No. of Cells” value (CD8+ T cells [2]) does the source give for “TCR_113: TCR to YLQPRTFLL / A*02:01 (TCR alpha CAVRGADNARLMF; TCR beta CASSSVSLGNEQFF)” here?
**A.** Its value is 4.

**Q.** What does the source list for PTDNYITTY (SARS-CoV-2 epitope)?
**A.** proportion of epitope-specific T cells in central memory (C2) (CD8+ T cells [1]; convalescent donors): 49%; No. of Clono Types (CD8+ T cells [2]; CDR3alpha motif group): 9; No. of subjects (CD8+ T cells [2]; CDR3alpha motif group): 2; Total Cells (CD8+ T cells [2]; CDR3alpha motif group): 13; No. of Clono Types (CD8+ T cells [2]; CDR3beta motif group): 7; No. of subjects (CD8+ T cells [2]; CDR3beta motif group): 2; Total Cells (CD8+ T cells [2]; CDR3beta motif group): 10

**Q.** For “TCR_124: TCR to YYQLYSTQL / A*24:02 (TCR alpha CAMSPNNAGNMLTF; TCR beta CASSLEMQGALYGYTF)”, which “No. of Cells” value (CD8+ T cells [2]) is on record?
**A.** Its value is 3.

**Q.** Which “No. of Cells” value (CD8+ T cells [2]) does the source give for “TCR_115: TCR to SPRWYFYYL / B*07:02 (TCR alpha CAAMNNTNAGKSTF; TCR beta CASSLFSSGQGNGYTF)” here?
**A.** Its value is 3.

**Q.** With GLVSQLSVLSSITNI as the compound, how does the IC50 (I-Ab) read?
**A.** Its IC50 is 5.28 µM.

**Q.** Which “No. of Cells” value (CD8+ T cells [2]) does the source give for “TCR_123: TCR to YLQPRTFLL / A*02:01 (TCR alpha CVVNGYNTDKLIF; TCR beta CASSSVSLGNEQFF)” here?
**A.** Its value is 4.

**Q.** With “TCR_125: TCR to SPRWYFYYL / B*07:02 (TCR alpha CALNQDRGSTLGRLYF; TCR beta CASSLFSSGQGNGYTF)” as the compound, how does the “No. of Cells” value (CD8+ T cells [2]) read?
**A.** The value was 3.

**Q.** With “TCR_128: TCR to SPRWYFYYL / B*07:02 (TCR alpha CAMSASPNDMRF; TCR beta CASSYYPSASGRADETQYF)” as the compound, how does the “No. of Cells” value (CD8+ T cells [2]) read?
**A.** Its value is 2.

**Q.** What does the source list for “RIRGGDGKM (SARS-CoV-2 N Protein epitope)”?
**A.** No. of Clono Types (CD8+ T cells [2]; CDR3alpha motif group): 2; No. of subjects (CD8+ T cells [2]; CDR3alpha motif group): 2; Total Cells (CD8+ T cells [2]; CDR3alpha motif group): 3; No. of Clono Types (CD8+ T cells [2]; CDR3beta motif group): 2; No. of subjects (CD8+ T cells [2]; CDR3beta motif group): 2; Total Cells (CD8+ T cells [2]; CDR3beta motif group): 3

**Q.** With VYIGDPAQL (SARS-CoV-2 ORF1AB epitope) as the compound, how does the “share of unexposed subjects with epitope-specific CD8+ T cells” value (CD8+ T cells [2]; unexposed subjects with the HLA allele) read?
**A.** Its value is “not detected”.

**Q.** Which “proportion of epitope-specific T cells in central memory (C2)” value (CD8+ T cells [1]; unexposed subjects) does the source give for TSQWLTNIF (SARS-CoV-2 epitope) here?
**A.** Its value is 70%.

**Q.** For `CC[C@H](C)[C@H](NC(=O)[C@@H](NC(=O)[C@H](CC(N)=O)NC(=O)[C@H](CCSC)NC(=O)[C@H](CC(C)C)NC(=O)[C@@H](N)[C@@H](C)O)C(C)C)C(=O)N[C@H](C(=O)N[C@@H](CC(C)C)C(=O)N[C@H](C(=O)O)C(C)C)[C@@H](C)O`, which “proportion of epitope-specific T cells in cytotoxic terminal effector (C7)” value (CD8+ T cells [1]; convalescent donors) is on record?
**A.** The value was 80%.

**Q.** For SARS2_9B: SARS-CoV-2 antigen 9B, which “specificity to SARS-CoV-2 antigens, count per antigen” value (CD8+ T cells [2]; A*02:01) is on record?
**A.** Its value is 9.

**Q.** And the “specificity to SARS-CoV-2 antigens, count per antigen, Summary” value (CD8+ T cells [2])?
**A.** The value was 9.

**Q.** Which IC50 (I-Ab) does the source give for IIKYNRRLAKSIICE here?
**A.** Its IC50 is 8.39 µM.

— patent US20220033460A1, “IDENTIFICATION AND USE OF T CELL EPITOPES IN DESIGNING DIAGNOSTIC AND THERAPEUTIC APPROACHES FOR COVID-19” (priority 2020, published 2022)
